## HIV-1 LAI Vif substitutions under APOBEC3G selection

Source: Langley et al. 2025, preprint (doi:10.1101/2025.10.20.683452), supplementary data.

Vif of LAI (a laboratory-adapted subtype B strain), residues 12-115; positions count from the first residue of the whole protein:
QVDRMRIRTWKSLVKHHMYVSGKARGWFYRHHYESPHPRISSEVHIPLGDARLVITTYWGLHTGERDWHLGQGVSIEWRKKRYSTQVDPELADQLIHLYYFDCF

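A pool of vif mutants was passaged twice, 72 h each, on SupT1 cells that express APOBEC3G. Frequencies after the second round, in three biological replicates, were compared with the merged pool after the first round.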

Values are log2 enrichment relative to wild type (0); lower means weaker defence against APOBEC3G and poorer growth.
Each entry names the wild-type residue, its position and the residue put in its place.
The median of three replicates is given, with the replicates in brackets.
Input reads are the counts in the merged round-one pool, before selection.
Replicates agree only moderately (rank correlation about 0.4-0.65); scores from under about 50 input reads tend to be too high.
The authors note that some positive scores may be noise, and some enriched variants failed when tested singly.
Not every substitution is listed.

mutation,input reads,median score
G71A,118,-1.92 (-1.92 / -3.10 / 1.43)
G71D,238,-0.78 (-0.73 / -2.42 / -0.78)
G71E,653,-3.48 (-2.18 / -3.60 / -3.48)
G71F,299,-1.30 (-0.94 / -2.85 / -1.30)
G71I,271,-1.74 (-1.74 / -1.23 / -2.75)
G71N,833,-4.08 (-2.66 / -4.13 / -4.08)
G71P,127,-2.76 (-2.76 / -4.05 / -2.02)
G71Q,48,-1.85 (2.00 / -4.98 / -1.85)
G71R,34,-0.24 (3.56 / -0.24 / -2.94)
G71S,601,-1.78 (-1.63 / -3.40 / -1.78)
G71V,722,-2.94 (-2.94 / 1.02 / -2.94)
G71W,27,1.77 (1.77 / 5.52 / 0.19)
G71Y,51,0.57 (6.09 / -1.60 / 0.57)
L72G,366,-0.92 (-0.92 / 1.89 / -1.38)
L72H,782,-1.20 (-1.47 / 1.02 / -1.20)
L72I,154,-3.46 (-1.82 / -3.46 / -3.51)
L72K,431,-1.86 (-1.86 / -4.20 / -0.46)
L72Q,453,-2.27 (-2.27 / -2.30 / -1.44)
L72T,371,-1.98 (-1.98 / 1.58 / -3.19)
L72V,129,-2.67 (-2.05 / -2.67 / -3.25)
L72Y,32,-2.37 (-2.37 / -0.29 / -2.84)
H73A,35,-2.48 (-2.48 / -0.62 / -2.97)
H73C,92,-2.76 (1.09 / -3.10 / -2.76)
H73D,42,0.47 (0.72 / -1.61 / 0.47)
H73E,158,2.76 (4.25 / 2.76 / -1.96)
H73G,506,-0.87 (-0.53 / -2.74 / -0.87)
H73N,436,-4.06 (-3.29 / -4.06 / -4.27)
H73Q,373,-1.48 (-1.48 / -2.56 / -0.94)
H73S,16,-0.61 (-1.38 / -0.61 / 5.73)
H73V,773,-1.44 (2.63 / -3.30 / -1.44)
H73W,487,-3.29 (-0.59 / -5.50 / -3.29)
H73Y,18,-1.54 (-1.54 / -1.26 / -2.03)
T74C,836,-2.03 (-1.22 / -2.90 / -2.03)
T74E,21,2.31 (2.31 / 5.93 / -2.24)
T74F,1600,-2.23 (-1.73 / -3.57 / -2.23)
T74G,713,-2.28 (-2.18 / -2.28 / -2.54)
T74I,244,-1.03 (-1.03 / 2.36 / -2.58)
T74K,839,-1.30 (-2.11 / 0.77 / -1.30)
T74N,88,1.97 (1.97 / -1.16 / 4.89)
T74P,93,3.64 (5.41 / 3.64 / 0.85)
T74R,93,-0.27 (-0.44 / 3.38 / -0.27)
T74S,511,-1.49 (-1.49 / 1.31 / -2.57)
T74V,437,-1.46 (-1.87 / 2.83 / -1.46)
T74W,404,-4.15 (-1.92 / -5.68 / -4.15)
T74Y,57,4.29 (-0.87 / 4.38 / 4.29)
G75A,997,-2.20 (-2.20 / -2.93 / -2.12)
G75C,2272,-0.35 (-0.35 / 4.19 / -0.96)
G75E,544,1.51 (-1.10 / 1.51 / 3.05)
G75F,365,-3.84 (-2.42 / -3.84 / -4.76)
G75I,721,-1.58 (-1.58 / 0.59 / -2.80)
G75K,444,-2.46 (-2.46 / -1.49 / -4.30)
G75L,225,-1.73 (-1.73 / 2.72 / -1.74)
G75N,31,0.46 (0.46 / 5.54 / -0.48)
G75P,352,-1.92 (-1.92 / -0.21 / -2.59)
G75Q,387,-2.03 (0.44 / -2.22 / -2.03)
G75R,546,-2.55 (-2.37 / -2.55 / -3.01)
G75S,46,2.38 (2.38 / 2.12 / 4.88)
G75T,450,-2.55 (-3.38 / -1.64 / -2.55)
G75W,1564,-3.02 (-3.02 / 0.52 / -3.31)
G75Y,1406,-1.41 (-0.84 / -2.23 / -1.41)
E76A,234,-2.43 (-2.43 / -5.65 / 0.59)
E76C,781,-2.59 (-2.59 / 0.74 / -3.54)
E76D,72,2.52 (2.52 / 5.00 / -0.32)
E76F,445,-2.71 (-2.71 / -0.04 / -2.94)
E76G,363,-1.22 (-1.48 / -1.05 / -1.22)
E76H,23,0.33 (-0.34 / 0.33 / 4.11)
E76I,462,-4.64 (-4.64 / -4.13 / -5.11)
E76K,967,-3.37 (-3.59 / -2.57 / -3.37)
E76L,1768,-1.71 (-1.71 / -0.11 / -2.06)
E76Q,430,-3.13 (-0.34 / -3.87 / -3.13)
E76R,1385,-1.53 (-2.60 / 0.19 / -1.53)
E76S,969,-2.16 (-2.16 / 0.79 / -3.51)
E76T,25,1.85 (-0.46 / 1.85 / 2.01)
E76V,931,-1.00 (-1.00 / 0.43 / -1.13)
E76W,518,-2.93 (-2.93 / -2.89 / -3.40)
R77A,68,0.87 (-0.30 / 4.15 / 0.87)
R77C,422,-2.42 (-2.92 / -2.13 / -2.42)
R77D,876,-2.29 (-2.29 / 0.40 / -2.70)
R77E,418,-1.42 (-2.38 / -1.42 / 0.63)
R77F,391,-1.64 (-1.46 / -3.09 / -1.64)
R77G,613,-1.14 (-1.14 / 2.17 / -1.26)
R77H,488,-1.96 (-2.60 / 2.51 / -1.96)
R77I,512,-0.94 (-0.94 / 2.18 / -1.43)
R77K,453,-2.49 (-2.49 / -2.61 / 0.18)
R77L,450,-2.48 (0.12 / -2.48 / -2.90)
R77N,25,1.79 (1.13 / 5.62 / 1.79)
R77P,342,0.28 (0.28 / -1.69 / 5.26)
R77Q,39,2.34 (1.85 / 5.27 / 2.34)
R77T,491,-2.06 (-2.06 / 1.45 / -2.48)
R77W,520,-2.72 (-2.48 / -3.15 / -2.72)
R77Y,369,-2.44 (-2.44 / -3.96 / -0.43)